Pooled drug test results. Numbers come from NIAID ChemDB, via PubChem.

Common to all: tests in culture; agent: HIV-1; read-out: EC50

Lines come from different laboratories, so protocols vary. ECn is the concentration giving n% inhibition of infection, replication or growth. Blank or dashed fields: not listed here.

structure,strain,changes,cell line,read by,conditions,result
Cc1ccnc2c1NC(=O)c1cccnc1N2C1CC1,74V,L74V,C8166,antigen,-,0.0355 µM
CC(=O)NCCCCN(C[C@H]1Cc2ccccc2CN1)[C@H]1CCCc2cccnc21,IIIB,-,MAGI-CCR5,MTS,-,0.29 µM
Cc1cn([C@H]2C=C[C@@H](CO)O2)c(=O)[nH]c1=O,NL4-3,-,MDM,-,-,0.3 µM
Cc1cn([C@H]2C[C@H](N=[N+]=[N-])[C@@H](CO)O2)c(=O)[nH]c1=O,1075 (AZT-resistant),-,CBMC,RT activity,-,0.25 µM
Cc1cn([C@H]2C[C@H](N=[N+]=[N-])[C@@H](CO)O2)c(=O)[nH]c1=O,LAI,-,HT4LACZ-1 + HT4 LacZ-1,plaque count,-,0.006 µM
O=c1[nH]cnc2c1ncn2[C@H]1CC[C@@H](CO)O1,RTMN (RT-M41L T215Y),RT-M41L T215Y,HT4 + HT4 LacZ-1,plaque count,-,3.02 µM
Cc1cc(O)cc(S(=O)(=O)c2cccc(N)c2C#N)c1,-,RT-G190A,HeLa + HELA CD4+,β-galactosidase,-,0.66 µM
C#C[C@]1(CO)O[C@@H](n2cnc3c(N)nc(F)nc32)C[C@@H]1OC(=O)CCCCCCC/C=C\C/C=C\C/C=C\CC,NL4-3,-,U373-CD4-CXCR4,luminescence,pseudotyped,0.0071 µM
Nc1nc(=O)n([C@@H]2CO[C@H](CO)S2)cc1F,3350(RT-M184V),RT-M184V,CBMC,RT activity,-,4.5 µM
CN(C)C(=O)NCCCCN(C[C@H]1Cc2ccccc2CN1)[C@H]1CCCc2cccnc21,IIIB,-,MAGI-CCR5,MTS,-,0.42 µM
O=C(C1CCCN1C(=O)OCc1ccccc1)N1CCSC1,LAV,-,CEM/MOLT-4,syncytia,-,>100 µM
C#C[C@]1(CO)O[C@@H](n2cnc3c(N)nc(F)nc32)C[C@@H]1OC(=O)CCC,NL4-3,-,U373-CD4-CXCR4,luminescence,pseudotyped,0.0277 µM
Cn1cc(C(=O)O)c(=O)c2cc(F)c(N3CC=C(c4ccccc4)CC3)c(C(F)(F)F)c21,IIIB,-,MOLT-4/U0(HIV-1(IIIB)) + MOLT-4,p24,-,0.05 µM
NCCCCN(C[C@@H]1NCCc2ccccc21)[C@H]1CCCc2cccnc21,IIIB,-,MAGI-CCR5,MTS,-,0.45 µM
Cc1ccnc2c1NC(=O)c1cccnc1N2C1CC1,HXB2(181 184) (RT Y181C M184V),RT-Y181C M184V,HT4 + HT4 LacZ-1,plaque count,-,12.6 µM
Nc1nc(NC2CC2)c2ncn([C@H]3C=C[C@@H](CO)C3)c2n1,NL4-3,-,Primary T lymphocytes,-,-,0.015 µM
Cc1cn([C@H]2C[C@H](N=[N+]=[N-])[C@@H](CO)O2)c(=O)[nH]c1=O,HX88C (RT-W88C),RT-W88C,HT4LACZ-1 + HT4 LacZ-1,-,-,0.0097 µM
CN1Cc2ccccc2C[C@@H]1CN(CCCCN)[C@H]1CCCc2cccnc21,IIIB,-,MAGI-CCR5,MTS,-,0.02 µM
Cc1cn([C@H]2C[C@H](N=[N+]=[N-])[C@@H](CO)O2)c(=O)[nH]c1=O,LAV-1,-,CEM(TK-) + CEM TK-,cytopathic effect,-,>100 µM
CC(C)(C)c1cc(C(C)(C)C)c(SCCO)c(O)c1O,-,-,CEM.SS + MT-4,MTT,-,3.67 µg/mL
C#C[C@]1(CO)O[C@@H](n2cnc3c(N)nc(F)nc32)C[C@@H]1OC(=O)CCCCCCCCCCCCCCCCCCC,NL4-3,-,U373-CD4-CXCR4,luminescence,pseudotyped,0.6353 µM
CN(C)CCCCN(C[C@H]1Cc2ccccc2CN1)[C@H]1CCCc2cccnc21,IIIB,-,MAGI-CCR5,MTS,-,0.03 µM
O=C1N(Cc2ccc(CO)cc2)[C@H](Cc2ccccc2)[C@H](O)[C@@H](O)[C@@H](Cc2ccccc2)N1Cc1ccc(CO)cc1,G clinical isolate,-,PBMC,p24,-,0.11 µM
O=CC1CSCN1C(=O)C1CCCN1C(=O)OCc1ccccc1,LAV,-,CEM/MOLT-4,syncytia,-,>100 µM
C#C[C@]1(CO)O[C@@H](n2cnc3c(N)nc(F)nc32)C[C@@H]1OC(=O)C(CCC)CCC,NL4-3,-,U373-CD4-CXCR4,luminescence,pseudotyped,0.0355 µM
O=C(C1CCCN1C(=O)OCc1ccccc1)N1CCCCC1,LAV,-,CEM/MOLT-4,syncytia,-,>1000 µM
Cc1cn([C@H]2C[C@H](N=[N+]=[N-])[C@@H](CO)O2)c(=O)[nH]c1=O,HIVRTMC,-,HT4 + HT4-6C,plaque count,-,0.24 µM
NCCCCN(C[C@H]1Cc2ccccc2CN1Cc1cocn1)[C@H]1CCCc2cccnc21,IIIB,-,MAGI-CCR5,MTS,-,0.04 µM
Cc1cc(Br)cc(S(=O)(=O)c2cccc(N)c2C#N)c1,-,RT-K103N Y181C,HeLa + HELA CD4+,β-galactosidase,-,>50 µM
C#C[C@]1(COC(=O)OCC)O[C@@H](n2cnc3c(N)nc(F)nc32)C[C@@H]1OC(=O)CCCCCCCCCCCCCCCCC,NL4-3,-,U373-CD4-CXCR4,luminescence,pseudotyped,1.266 µM
O=c1[nH]cnc2c1ncn2[C@H]1CC[C@@H](CO)O1,NL4-3,-,MDM,-,-,1.805 µM
COc1cc(C(F)(F)F)cc(S(=O)(=O)c2cccc(N)c2C#N)c1,-,RT-Y181C,HeLa + HELA CD4+,β-galactosidase,-,13 µM
Nc1nc(=O)n([C@H]2CO[C@@H](CO)S2)cc1F,3887(RT-M184M/V),RT-M184M/V,CBMC,RT activity,-,0.3 µM
Nc1ccn([C@H]2CC[C@@H](CO)O2)c(=O)n1,HX,-,HT4LACZ-1 + HT4 LacZ-1,-,-,0.8 µM
NCCCCN(C[C@H]1NCCc2ccccc21)[C@H]1CCCc2cccnc21,IIIB,-,MAGI-CCR5,MTS,-,0.25 µM
C#C[C@]1(CO)O[C@@H](n2cnc3c(N)nc(F)nc32)C[C@@H]1OC(=O)C(C)CCCCC,NL4-3,-,U373-CD4-CXCR4,luminescence,pseudotyped,0.0029 µM
O=C1Nc2ccc(Cl)cc2[C@@](C#CC2CC2)(C(F)(F)F)O1,NL4-3,-,MDM,-,-,0.071 µM
Cc1ccnc2c1NC(=O)c1cccnc1N2C1CC1,NNRTI-resistant (RT V106A),RT-V106A,MAGI,β-galactosidase,-,8.2 µM
C#C[C@]1(CO)O[C@@H](n2cnc3c(N)nc(F)nc32)C[C@@H]1OC(=O)C1CCC(C(C)(C)C)CC1,NL4-3,-,U373-CD4-CXCR4,luminescence,pseudotyped,0.0026 µM

The last 3 rows once more:

structure	strain	changes	cell line	read by	conditions	result
O=C1Nc2ccc(Cl)cc2[C@@](C#CC2CC2)(C(F)(F)F)O1	NL4-3	-	MDM	-	-	0.071 µM
Cc1ccnc2c1NC(=O)c1cccnc1N2C1CC1	NNRTI-resistant (RT V106A)	RT-V106A	MAGI	β-galactosidase	-	8.2 µM
C#C[C@]1(CO)O[C@@H](n2cnc3c(N)nc(F)nc32)C[C@@H]1OC(=O)C1CCC(C(C)(C)C)CC1	NL4-3	-	U373-CD4-CXCR4	luminescence	pseudotyped	0.0026 µM